Test results as given in publication PMC5802825, “Legionella DotM structure reveals a role in effector recruiting to the Type 4B secretion system” (2018).

Biological target: DotM153 (DotM residues 153–380), wild type (L. pneumophila)
Test: SEC-MALS; DotM153 in solution; conditions not given

## DotM153 (DotM residues 153–380), wild type (domain or fragment)
  stoichiometry N: 2
